Assay results from BindingDB's records for doi:10.1021/bi0488799 (Glaxosmithkline, 2004).

Legend:
Experiment in all cases: Fluorometric Activity Assay
Details in all cases: pH 5.5; 30 °C
[1] = target: T1, Dimer of Gag-Pol polyprotein [489-587,I539V] (Human immunodeficiency virus 1, UniProt P04585, I539V)
T1 construct: 489-587
Procedure: (§1) Enzymatic activity was determined with fluorogenic substrate in the presence and absence of inhibitor. The fluorescence increase due to hydrolysis of the substrate was monitored with an excitation filter of wavelength 340 nm and an emission filter of wavelength 420. Values for the inhibition constants (Ki) were determined by conventional steady-state kinetic techniques.

[2] = target: T2, Dimer of Gag-Pol polyprotein [489-587,L499I,L508Q,K509R,E524D,M525I,S526N,M535I,I539V,I543V,I551V,L552P,A560V,V571A,L579M] (Human immunodeficiency virus 1, UniProt P04585, A560V/E524D/I539V/I543V/I551V/K509R/L499I/L508Q/L552P/L579M/M525I/M535I/S526N/V571A)
T2 construct: 489-587
Procedure: as §1

[3] = target: T3, Dimer of Gag-Pol polyprotein [489-587,M535I,L552P,A560V,V571F,I573V] (Human immunodeficiency virus 1, UniProt P04585, A560V/I573V/L552P/M535I/V571F)
T3 construct: 489-587
Procedure: as §1

In the case of CC(C)CN(C[C@@H](O)[C@H](Cc1ccccc1)NC(=O)O[C@H]1CCOC1)S(=O)(=O)c1ccc(N)cc1 [VX-478], the Ki [1] is reported as 4.9 nM, the Ki [2] is reported as 58 nM and the Ki [3] is reported as 2.3 nM.
